# According to PubChem BioAssay AID1259415 (National Center for Advancing Translational Sciences (NCATS), 2018):
# Only a part is listed here, and it is no random draw. Inconclusive results are not listed. Activity calls are given as the source filed them. No stated cut-off is given here; in the data, active means activity change below about -60%; inconclusive means no clear call, values can overlap the other calls; inactive means above about -39%.
# Experiment: qHTS Assay for inhibitors of the human cytomegalovirus (HCMV)
# Conditions: HFF cells, HCMV-luciferase reporter, 72 h; at 57.5 µM; stronger effect = lower value
# From the text: NCGC Assay Overview: Infection with human cytomegalovirus (HCMV) continues to pose significant threats for pregnant women and immunocompromised hosts. HCMV causes serious morbidity and mortality in transplant recipients, and congenital HCMV is the leading infectious cause of mental retardation and deafness in children. In the 1990s, the annual costs associated with the disease burden of congenital CMV were estimated at around $2 billion. A HCMV vaccine is not available yet and HCMV therapies result in intolerable side effects and emergence of drug resistant viruses. […] Towards this goal we have developed and characterized a luciferase HCMV reporter that was initially used in 96 well plates and then optimized to 1536-well plates for utilization in screening of the MLSMR collection, the NGCG diversity collection and the NCGC Pharmaceutical Collection of approved and investigational drugs.
# NCGC Assay Protocol Summary:
# This is a cell-based assay for HCMV inhibition in HFFs cells. The screening used 2 compound doses and the HCMV-luciferase at MOI of 1 PFU/cell. Cells were treated and infected with HCMV. At 72 h post infection cell lysates were collected and luciferase activity was determined using the Glomax-Multi + Detection System (Promega, Madison, WI). Data were normalized to the controls for basal activity (buffer only) and known HCMV inhibitors Salinmoycin.
# 1536-well assay protocol for the assay:
# (1) Add 3 ul CMV/HFF cell culture. 1000 cells/well in DMEM nirmal media.
# (2) Incubate 16 hr at 37C.
# (3) Add 23 nl control compound, 10uM of Salinomycin.
# (4) Add 23 nl compounds in DMSO solution.
# (5) Add 3 ul CMV suspension. Final 1 puf/ul, Virus stock 2000pfu/ul
# (6) Incubate 72 hrs at 37C.
# (7) Add 4 ul OneGlo Luc Reagent.
# (8) Incubate 5 min at room temperature.
# On the % scale 0 is the no-effect control and ±100 the full control effect.
row,SMILES,"activity change, negative = inhibition"
1,O=[N+]([O-])c1cc([N+](=O)[O-])c(Nc2cccnc2)c([N+](=O)[O-])c1,inactive: 23.3%
2,Cc1cccc(C)c1OP(C)(N)=O (configuration not stated),inactive: -19.7%
3,CC(C)(C)c1ccc(OP(C)(=O)Nc2ccc(SC(F)(F)F)cc2)cc1 (configuration not stated),inactive: -6.54%
4,Cc1ccc(NP(C)(=O)Oc2ccccc2)c(C)c1 (configuration not stated),inactive: 1.01%
5,COc1ccccc1OP(C)(=O)Nc1ccc(C)cc1 (configuration not stated),inactive: -0.26%
6,CCOC(=O)c1ccc(NP(C)(=O)Oc2ccccc2)cc1 (configuration not stated),inactive: 18.5%
7,COc1ccc(OP(C)(=O)Nc2cccc(F)c2)cc1 (configuration not stated),inactive: 11.1%
8,COc1ccccc1OP(C)(=O)Nc1cc(Cl)ccc1C (configuration not stated),inactive: -22.7%
9,CCN(CC)CCCOC(=O)C(O)(c1ccccc1)c1ccccc1,inactive: -22%
10,COc1ccccc1-c1ccccn1.O=[N+]([O-])c1cc([N+](=O)[O-])c(O)c([N+](=O)[O-])c1,inactive: -9.87%
11,CP(=O)(Oc1ccccc1)OC(c1ccccc1)C(F)(F)F (configuration not stated),inactive: 1.46%
12,CP(=O)(Nc1ccc(SC(F)(F)F)cc1)Oc1ccc(Cl)cc1 (configuration not stated),inactive: 16.1%
13,Cc1cccc(C)c1OP(C)(=O)Nc1ccc(SC(F)(F)F)cc1 (configuration not stated),inactive: -3.37%
14,Cc1cc(C)cc(OP(C)(=O)Nc2ccc(SC(F)(F)F)cc2)c1 (configuration not stated),inactive: -12.8%
15,O=[N+]([O-])c1cc([N+](=O)[O-])c(O)c([N+](=O)[O-])c1.c1ccc(Oc2ccncc2)cc1,inactive: -14.4%
16,CCOC(=O)c1ccc(NP(C)(=O)Oc2ccc(OC)cc2)cc1 (configuration not stated),inactive: 2.75%
17,CCOP(C)(=S)SCC(=O)NC(C)C(=O)O (configuration not stated),inactive: -30.2%
18,CP(=O)(Nc1ccccn1)Oc1ccc(Cl)cc1 (configuration not stated),inactive: 38.5%
19,CP(=O)(Nc1ccccc1Br)Oc1ccccc1 (configuration not stated),inactive: 6.53%

row,SMILES,"activity change, negative = inhibition"
1,COc1ccccc1OP(C)(=O)Nc1ccccc1 (configuration not stated),inactive: 6.99%
2,O=[N+]([O-])c1cc([N+](=O)[O-])c(Nc2nnnn2CCO)c([N+](=O)[O-])c1,inactive: -23.6%
3,CN1CCCCC1COC(=O)C1(O)c2ccccc2CCc2ccccc21 (configuration not stated),inactive: 22%
4,COc1ccccc1OP(C)(=O)Nc1c(C)cccc1C (configuration not stated),inactive: 14.6%
5,COc1ccc(-c2ccccn2)cc1.O=[N+]([O-])c1cc([N+](=O)[O-])c(O)c([N+](=O)[O-])c1,inactive: 15.4%
6,CP(=O)(Nc1ccc(SC(F)(F)F)cc1)Oc1ccccc1 (configuration not stated),inactive: -26.8%
7,CN(Cc1cccnc1)C(=O)COc1ccc(Cl)c(Cl)c1.O=[N+]([O-])c1cc([N+](=O)[O-])c(O)c([N+](=O)[O-])c1,inactive: -19.7%
8,Cc1nc2ccc3ccccc3c2s1.O=[N+]([O-])c1cc([N+](=O)[O-])c(O)c([N+](=O)[O-])c1,inactive: -11%
9,COc1ccccc1OP(C)(=O)Nc1cccc(Br)c1 (configuration not stated),inactive: -36.5%
10,CCOC(=O)c1ccc(NP(C)(=O)Oc2cc(C)cc(C)c2)cc1 (configuration not stated),inactive: -20.4%
11,Cc1cc(C)cc(OP(C)(=O)Nc2ccc(C)cc2C)c1 (configuration not stated),inactive: -12.5%
12,Cc1cc(C)cc(OP(C)(=O)Nc2ccccn2)c1 (configuration not stated),inactive: 9.02%
13,CP(=O)(Nc1cccc(Br)c1)Oc1ccccc1 (configuration not stated),inactive: -5.51%
14,CC1=NCCc2c1[nH]c1ccccc21.O=[N+]([O-])c1cc([N+](=O)[O-])c(O)c([N+](=O)[O-])c1,inactive: 40.1%
15,CCOC(=O)c1ccc(NP(C)(=O)Oc2ccc(F)cc2)cc1 (configuration not stated),inactive: -8.79%
16,COc1ccc(OP(C)(=O)Nc2ccc(SC(F)(F)F)cc2)cc1 (configuration not stated),inactive: 27%
17,Cc1c([N+](=O)[O-])cc([N+](=O)[O-])c(Br)c1[N+](=O)[O-],inactive: 50.8%
18,CCN(CC)CCCOC(=O)C(O)(c1ccccc1)C1CCCCC1 (configuration not stated),inactive: -19.8%
19,CP(=O)(Nc1ccccc1)Oc1ccc(F)cc1 (configuration not stated),inactive: 32.9%

row,SMILES,"activity change, negative = inhibition"
1,CCCCCOc1ccc(NP(C)(=O)Oc2ccc(Cl)cc2Cl)cc1 (configuration not stated),inactive: -4.73%
2,CP(=O)(Nc1ccccc1F)Oc1ccccc1 (configuration not stated),inactive: 55.4%
3,CC(C)c1ccc(OP(C)(=O)Nc2ccc(SC(F)(F)F)cc2)cc1 (configuration not stated),inactive: -29%
4,O=C(OCCN1CCN(CCOCc2ccccc2)CC1)C(O)(c1ccccc1)c1ccccc1,inactive: -33.1%
5,CP(=O)(Nc1ccc(SC(F)(F)F)cc1)Oc1ccc(F)cc1 (configuration not stated),inactive: -1.78%
6,CCOP(C)(=S)SCC(=O)NC(C)(CC)C(=O)O (configuration not stated),inactive: 30%
7,CCOP(=O)(CC)OCC,inactive: 19.6%
8,CP(=O)(Nc1ccc2c(c1)OCCO2)Oc1ccccc1 (configuration not stated),inactive: 2.88%
9,Cc1ccccc1NP(C)(=O)Nc1ccccc1C,inactive: -30.5%
10,O=[N+]([O-])c1cc([N+](=O)[O-])c(C(F)(F)F)c([N+](=O)[O-])c1O,inactive: 18.2%
11,CN(C)CCOC(=O)C(O)(c1ccccc1)C1CCCCC1 (configuration not stated),inactive: 15.5%
12,COc1ccc(NP(C)(=O)Oc2ccccc2OC)cc1 (configuration not stated),inactive: 28.6%
13,O=[N+]([O-])c1ccc(OP2(=O)COCCO2)cc1 (configuration not stated),inactive: 68.7%
14,Cc1cc(-c2cccc3ccccc23)c(C)cn1.O=[N+]([O-])c1cc([N+](=O)[O-])c(O)c([N+](=O)[O-])c1,inactive: -16.8%
15,Cc1c(C(c2ccc3c(c2)OCO3)c2c(C)n(C)n(-c3ccccc3)c2=O)c(=O)n(-c2ccccc2)n1C.O=[N+]([O-])c1cc([N+](=O)[O-])c(O)c([N+](=O)[O-])c1,inactive: -37.8%
16,Nc1ccc2c(ccc3cccnc32)n1.O=[N+]([O-])c1cc([N+](=O)[O-])c(O)c([N+](=O)[O-])c1,inactive: 48%
17,CCOC(=O)c1ccc(NP(C)(=O)Oc2ccc(Cl)cc2)cc1 (configuration not stated),inactive: 18.4%
18,CP(=O)(OC12CC3CC(CC(C3)C1)C2)OC12CC3CC(CC(C3)C1)C2,inactive: -10.5%
19,COc1ccc(OP(C)(=O)Nc2ccc(Br)cc2)cc1 (configuration not stated),inactive: 39.4%
